Measured values taken from patent US20200024330A1.

Key:
Assay in all cases: cell-based or functional assay
[1] = target: panel of HIV-1 pseudoviruses of Table 52
[2] = target: HIV-1 Env of the clade D pseudoviruses of the cross-clade 162-pseudovirus panel (n=25)
[3] = target: HIV-1 Env of the clade AG pseudoviruses of the cross-clade 162-pseudovirus panel (n=10)
[4] = target: HIV-1 clade F pseudoviruses (Env) of the cross-clade 162-pseudovirus panel, n=15
[5] = target: 162-pseudovirus panel representing all major circulating HIV-1 subtypes
[6] = target: HIV-1 Env of the clade AE pseudoviruses of the cross-clade 162-pseudovirus panel (n=10)
[7] = target: HIV-1 Env of the clade B pseudoviruses of the cross-clade 162-pseudovirus panel (n=31)
[8] = target: HIV-1 Env of all pseudoviruses of the cross-clade 162-pseudovirus panel (n = 162)
[9] = target: HIV-1 Env of the clade A pseudoviruses of the cross-clade 162-pseudovirus panel (n=26)
[10] = target: HIV-1 Env of the clade F pseudoviruses of the cross-clade 162-pseudovirus panel (n=15)
[11] = target: HIV-1 clade G pseudoviruses (Env) of the cross-clade 162-pseudovirus panel, n=15
[12] = target: HIV-1 clade D pseudoviruses (Env) of the cross-clade 162-pseudovirus panel, n=25
[13] = target: HIV-1 Env of the clade C pseudoviruses of the cross-clade 162-pseudovirus panel (n=27)
[14] = target: HIV-1 clade C pseudoviruses (Env) of the cross-clade 162-pseudovirus panel, n=27
[15] = target: HIV-1 clade B pseudoviruses (Env) of the cross-clade 162-pseudovirus panel, n=31
[16] = target: All HIV-1 pseudoviruses (Env) of the cross-clade 162-pseudovirus panel, n=162
[17] = target: HIV-1 Env of the clade G pseudoviruses of the cross-clade 162-pseudovirus panel (n=15)
[18] = target: HIV-1 clade A pseudoviruses (Env) of the cross-clade 162-pseudovirus panel, n=26
[19] = target: HIV-1 Env of all pseudoviruses of the cross-clade 162-pseudovirus panel (n=162)
[20] = target: HIV-1 clade AG pseudoviruses (Env) of the cross-clade 162-pseudovirus panel, n=10
[21] = target: HIV-1 clade AE pseudoviruses (Env) of the cross-clade 162-pseudovirus panel, n=10

B1: PGT-141 (4964_G22; 4993_K13) (antibody, V domains shown)
VH: QVQLVQSGPEVKKPGSSVKVSCKASGNTFSKYDVHWVRQATGQGLEWVGWMSHEGDKTESAQRFKGRVTFTRDTSASTAYMELRGLTSDDTAIYYCTRGSKHRLRDYVLYDDYGLINYQEWNDYLEFLDVWGHGTAVTVSS
VL: DTVVTQSPLSLPVTPGEAASMSCSSTQSLRHSNGANYLAWYQHKPGQSPRLLIRLGSQRASGVPDRFSGSGSGTHFTLKISRVEAEDAAIYYCMQGLNRPWTFGKGTKLEIK
- median IC50 (ug/ml), pseudovirus neutralization [1]: 0.5 µg/mL

B2: PGT-142 (4995_E20) (antibody, V domains shown)
VH: QVQLVQSGPEVKKPGSSVKVSCKASGNTFSKYDVHWVRQATGQGLEWVGWISHERDKTESAQRFKGRVTFTRDTSATTAYMELRGLTSDDTAIYYCTRGSKHRLRDYVLYDDYGLINYQEWNDYLEFLDVWGHGTAVTVSS
VL: DTVVTQSPLSLPVTPGEAASMSCSSTQSLRHSNGANYLAWYQHKPGQSPRLLIRLGSQRASGVPDRFSGSGSGTHFTLKISRVEAEDAAIYYCMQGLNRPWTFGKGTKLEIK
- median IC50 (ug/ml), pseudovirus neutralization [1]: 0.25 µg/mL

B3: PGT-143 (4980_N08) (antibody, V domains shown)
VH: QVQLEQSGAEVKKPGSSVKVSCKASGNTFSKYDVHWVRQATGQGLEWVGWMSHEGDKTESAQRFKGRVTFTRDTSASTAYMELRGLTSDDTAIYYCTRGSKHRLRDYVLYDDYGLINYQEWNDYLEFLDVWGHGTAVTVSS
VL: DTVVTQSPLSLPVTPGEAASMSCTSTQSLRHSNGANYLAWYQHKPGQSPRLLIRLGSQRASGVPDRFSGSGSGTHFTLKISRVEPEDAAIYYCMQGLNRPWTFGKGTKLEIK
- median IC50 (ug/ml), pseudovirus neutralization [1]: 0.37 µg/mL

B4: PGT-144 (4970_K22) (antibody, V domains shown)
VH: QVQLVQSGAEVKKPGSSVKVSCKASGNTFRKYDVHWVRQATGQGLEWVGWMSHEGDKTESAQRFKGRVSFTRDNSASTAYIELRGLTSDDTAIYYCTGGSKHRLRDYVLYDDYGLINQQEWNDYLEFLDVWGHGTAVTVSS
VL: DTVVTQSPLSLSVTPGEAASMSCTSTQSLRHSNGANYLAWYQHKPGQSPRLLIRLGSQRASGVPDRFSGSGSGTHFTLKISRVEADDAAIYYCMQGLNRPWTFGKGTKLEIK
- median IC50 (ug/ml), pseudovirus neutralization [1]: 0.16 µg/mL

B5: 5136_H01 (PGT-131) (antibody, V domains shown)
VH: QVQLQESGPGLVKPSETLSLTCTVSGDSINTGHHYWGWVRQVPGKGPEWIAHIHYNTAVLHNPALKSRVTISIFTLKNLITLSLSNVTAADTAVYFCVRSGGDILYYIEWQKPHWFYPWGPGILVTVSS
VL: QSALTQPPSASGSLGQSLTISCSGTGSDIGSWNFVSWYQQFPGRAPNLIIFEVNRRRSGVPDRFSGSKSGNTASLTVSGLRSEDEAEYFCSSLSGRWDIVFGGGTKVTVL
- Median IC50 (µg/ml) against viruses neutralized with an IC50 <50 µg/ml [2]: 2.67 µg/mL
- Median IC50 (µg/ml) against viruses neutralized with an IC50 <50 µg/ml [3]: 0.16 µg/mL
- Percent viruses neutralized with an IC50 <50 µg/ml [4]: 7%
- Percent viruses neutralized, IC50 <0.1 µg/ml [5]: 13%
- Percent viruses neutralized, IC50 <1 µg/ml [5]: 23%
- Percent viruses neutralized, IC50 <50 µg/ml [5]: 40%
- Median IC50 (µg/ml) against viruses neutralized with an IC50 <50 µg/ml [6]: 0.21 µg/mL
- Median IC50 (µg/ml) against viruses neutralized with an IC50 <50 µg/ml [7]: 0.5 µg/mL
- Median IC50 (µg/ml) against all viruses [8]: 50 µg/mL
- Median IC50 (µg/ml) against viruses neutralized with an IC50 <50 µg/ml [9]: 0.73 µg/mL
- Median IC50 (µg/ml) against viruses neutralized with an IC50 <50 µg/ml [10]: 1.92 µg/mL
- Percent viruses neutralized with an IC50 <50 µg/ml [11]: 0%
- Percent viruses neutralized with an IC50 <50 µg/ml [12]: 8%
- Median IC50 (µg/ml) against viruses neutralized with an IC50 <50 µg/ml [13]: 15.8 µg/mL
- Percent viruses neutralized with an IC50 <50 µg/ml [14]: 21%
- Percent viruses neutralized with an IC50 <50 µg/ml [15]: 29%
- Median IC50 (µg/ml) against viruses neutralized with an IC50 <50 µg/ml [16]: 0.54 µg/mL

B6: 5343_B08 (PGT-135) (antibody, V domains shown)
VH: QLQMQESGPGLVKPSETLSLSCTVSGDSIRGGEWGDKDYHWGWVRHSAGKGLEWIGSIHWRGTTHYKESLRRRVSMSIDTSRNWFSLRLASVTAADTAVYFCARHRHHDVFMLVPIAGWFDVWGPGVQVTVSS
VL: EIVMTQSPDTLSVSPGETVTLSCRASQNINKNLAWYQYKPGQSPRLVIFETYSKIAAFPARFVASGSGTEFTLTINNMQSEDVAVYYCQQYEEWPRTFGQGTKVDIK
- Median IC50 (µg/ml) against viruses neutralized with an IC50 <50 µg/ml [2]: 1.13 µg/mL
- Percent viruses neutralized, IC50 <0.1 µg/ml [5]: 13%
- Percent viruses neutralized, IC50 <1 µg/ml [5]: 23%
- Percent viruses neutralized, IC50 <50 µg/ml [5]: 33%
- Median IC50 (µg/ml) against viruses neutralized with an IC50 <50 µg/ml [17]: 1.01 µg/mL
- Median IC50 (µg/ml) against viruses neutralized with an IC50 <50 µg/ml [7]: 2.87 µg/mL
- Median IC50 (µg/ml) against all viruses [8]: 50 µg/mL
- Median IC50 (µg/ml) against viruses neutralized with an IC50 <50 µg/ml [9]: 1.01 µg/mL
- Median IC50 (µg/ml) against viruses neutralized with an IC50 <50 µg/ml [10]: 1.26 µg/mL
- Percent viruses neutralized with an IC50 <50 µg/ml [11]: 20%
- Percent viruses neutralized with an IC50 <50 µg/ml [12]: 8%
- Percent viruses neutralized with an IC50 <50 µg/ml [18]: 4%
- Median IC50 (µg/ml) against viruses neutralized with an IC50 <50 µg/ml [13]: 0.28 µg/mL
- Percent viruses neutralized with an IC50 <50 µg/ml [15]: 23%
- Median IC50 (µg/ml) against viruses neutralized with an IC50 <50 µg/ml [16]: 1.13 µg/mL

B7: 4993_K13 (PGT-141) (antibody, V domains shown)
VH: QVQLVQSGPEVKKPGSSVKVSCKASGNTFSKYDVHWVRQATGQGLEWVGWMSHEGDKTESAQRFKGRVTFTRDTSASTAYMELRGLTSDDTAIYYCTRGSKHRLRDYVLYDDYGLINYQEWNDYLEFLDVWGHGTAVTVSS
VL: DTVVTQSPLSLPVTPGEAASMSCSSTQSLRHSNGANYLAWYQHKPGQSPRLLIRLGSQRASGVPDRFSGSGSGTHFTLKISRVEAEDAAIYYCMQGLNRPWTFGKGTKLEIK
- Median IC50 (µg/ml) against all viruses [3]: 31 µg/mL
- Median IC50 (µg/ml) against viruses neutralized with an IC50 <50 µg/ml [4]: 4.55 µg/mL
- Percent viruses neutralized, IC50 <0.1 µg/ml [5]: 15%
- Percent viruses neutralized, IC50 <1 µg/ml [5]: 36%
- Percent viruses neutralized, IC50 <50 µg/ml [5]: 56%
- Median IC50 (µg/ml) against all viruses [17]: 4.69 µg/mL
- Median IC50 (µg/ml) against all viruses [19]: 18 µg/mL
- Median IC50 (µg/ml) against viruses neutralized with an IC50 <50 µg/ml [11]: 1.58 µg/mL
- Median IC50 (µg/ml) against viruses neutralized with an IC50 <50 µg/ml [20]: 3.66 µg/mL
- Median IC50 (µg/ml) against viruses neutralized with an IC50 <50 µg/ml [12]: 25.1 µg/mL
- Median IC50 (µg/ml) against viruses neutralized with an IC50 <50 µg/ml [18]: 2.88 µg/mL
- Median IC50 (µg/ml) against viruses neutralized with an IC50 <50 µg/ml [14]: 3.83 µg/mL
- Median IC50 (µg/ml) against viruses neutralized with an IC50 <50 µg/ml [15]: 4.62 µg/mL
- Median IC50 (µg/ml) against viruses neutralized with an IC50 <50 µg/ml [21]: 0.03 µg/mL
- Median IC50 (µg/ml) against viruses neutralized with an IC50 <50 µg/ml [16]: 3.8 µg/mL

B8: 4970_K22 (PGT-144) (antibody, V domains shown)
VH: QVQLVQSGAEVKKPGSSVKVSCKASGNTFRKYDVHWVRQATGQGLEWVGWMSHEGDKTESAQRFKGRVSFTRDNSASTAYIELRGLTSDDTAIYYCTGGSKHRLRDYVLYDDYGLINQQEWNDYLEFLDVWGHGTAVTVSS
VL: DTVVTQSPLSLSVTPGEAASMSCTSTQSLRHSNGANYLAWYQHKPGQSPRLLIRLGSQRASGVPDRFSGSGSGTHFTLKISRVEADDAAIYYCMQGLNRPWTFGKGTKLEIK
- Median IC50 (µg/ml) against viruses neutralized with an IC50 <50 µg/ml [4]: 7.79 µg/mL
- Percent viruses neutralized, IC50 <0.1 µg/ml [5]: 3%
- Percent viruses neutralized, IC50 <1 µg/ml [5]: 16%
- Percent viruses neutralized, IC50 <50 µg/ml [5]: 38%
- Median IC50 (µg/ml) against all viruses [19]: 50 µg/mL
- Median IC50 (µg/ml) against viruses neutralized with an IC50 <50 µg/ml [11]: 7.57 µg/mL
- Median IC50 (µg/ml) against viruses neutralized with an IC50 <50 µg/ml [12]: 19.1 µg/mL
- Median IC50 (µg/ml) against viruses neutralized with an IC50 <50 µg/ml [18]: 4.31 µg/mL
- Median IC50 (µg/ml) against viruses neutralized with an IC50 <50 µg/ml [14]: 12.4 µg/mL
- Median IC50 (µg/ml) against viruses neutralized with an IC50 <50 µg/ml [15]: 7.06 µg/mL
- Median IC50 (µg/ml) against viruses neutralized with an IC50 <50 µg/ml [21]: 3.41 µg/mL
- Median IC50 (µg/ml) against viruses neutralized with an IC50 <50 µg/ml [16]: 8.37 µg/mL
